In experiment [1] the target is human Kv1.1 channel (human) (UniProt Q09470). The experiment can be described thus: cell-based or functional assay.
Experiment [2] concerns the target human Kv1.3 channel (human) (UniProt P22001). Briefly: cell-based or functional assay.

Turning to Fc-L10-OSK1[K7S] (Fc fusion), the hKv1.1: IC50 (whole cell patch clamp, block of K+ current) in experiment [1] was 100 nM. In addition, in experiment [2], the fold change in potency (Kv1.3 current block) against Fc-L10-OSK1 turned out to be 2 fold and the fold loss of potency (Kv1.3 current block) against synthetic OSK1 toxin peptide amounted to 10 fold.

The values above are taken from US20090299044A1.
